The list shows a part of the results, in another mix than the full data. Results filed as inconclusive are left out. Activity calls are given as the source filed them. Calls come from the whole dose curve; as a rule, active = well fitted inhibition curve with a large enough effect; inconclusive = small, poorly fitted or top-dose-only effect; inactive = flat fitted curve, though single readings scatter.

By UniProt entry, the sequences of proteins in these tests, tags left out.
UniProt P00811, whole entry: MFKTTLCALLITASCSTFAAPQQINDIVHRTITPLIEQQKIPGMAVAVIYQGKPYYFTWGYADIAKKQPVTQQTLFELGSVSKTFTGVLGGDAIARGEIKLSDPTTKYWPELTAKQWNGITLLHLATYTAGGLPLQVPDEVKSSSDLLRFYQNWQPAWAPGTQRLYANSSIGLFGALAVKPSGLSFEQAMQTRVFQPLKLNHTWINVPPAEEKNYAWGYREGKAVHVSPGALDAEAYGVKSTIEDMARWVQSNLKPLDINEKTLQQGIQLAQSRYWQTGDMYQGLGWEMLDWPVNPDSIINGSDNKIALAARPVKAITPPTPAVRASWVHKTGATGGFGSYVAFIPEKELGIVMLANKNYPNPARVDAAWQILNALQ

For the experiment, the target named is Beta-lactamase (Escherichia coli (strain K12)) (UniProt P00811). As to the kind of experiment: qHTS Inhibitors of AmpC Beta-Lactamase (assay with detergent).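 Note: 0% = no-compound wells and -100% = no-enzyme wells; nearly all actives have a fitted effect of over 25% in size.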 Conditions: AmpC hydrolysis of nitrocefin, absorbance 480 nm, 0.01% Triton; at 114 µM (top of the series).
As to `CP(=O)(Nc1ccc(SC(F)(F)F)cc1)Oc1ccccc1` (stereo unspecified), the activity change, negative = inhibition was inactive: -10.5%.

Consider `COc1ccccc1OP(C)(=O)Nc1c(C)cccc1C` (stereo unspecified), for which the activity change, negative = inhibition is inactive: -3.45%.

Turning to `CN1CCCCC1COC(=O)C1(O)c2ccccc2CCc2ccccc21` (stereo unspecified), the activity change, negative = inhibition is inactive: -10%.

Consider `O=[N+]([O-])c1cc([N+](=O)[O-])c(Nc2nnnn2CCO)c([N+](=O)[O-])c1`, for which the activity change, negative = inhibition was inactive: 1.19%.

`O=[N+]([O-])c1cc([N+](=O)[O-])c(-n2nnc3ccccc32)c([N+](=O)[O-])c1`: the activity change, negative = inhibition is inactive: -0.786%.

Consider `Cc1ccccc1NP(C)(=O)Nc1ccccc1C`, for which the activity change, negative = inhibition was inactive: -0.063%.

For `CP(=O)(Nc1ccc2c(c1)OCCO2)Oc1ccccc1` (stereo unspecified), the activity change, negative = inhibition is inactive: -7.3%.

As to `CCOP(C)(=S)SCC(=O)NC(C)(CC)C(=O)O` (stereo unspecified), the activity change, negative = inhibition was inactive: 3.38%.

As to `CP(=O)(Nc1ccc(SC(F)(F)F)cc1)Oc1ccc(F)cc1` (stereo unspecified), the activity change, negative = inhibition was inactive: 0.261%.

Take `Cc1cc(-c2cccc3ccccc23)c(C)cn1.O=[N+]([O-])c1cc([N+](=O)[O-])c(O)c([N+](=O)[O-])c1`: the activity change, negative = inhibition is inactive: -6%.

Consider `COc1ccc(NP(C)(=O)Oc2ccccc2OC)cc1` (stereo unspecified), for which the activity change, negative = inhibition was inactive: 0.0588%.

Consider `CN(C)CCOC(=O)C(O)(c1ccccc1)C1CCCCC1` (stereo unspecified), for which the activity change, negative = inhibition is inactive: 0.833%.

As to `COc1ccc(OP(C)(=O)Nc2cccc(Br)c2)cc1` (stereo unspecified), the activity change, negative = inhibition was inactive: -0.286%.

Turning to `CCCCCOc1ccc(NP(C)(=O)Oc2ccc(Cl)cc2Cl)cc1` (stereo unspecified), the activity change, negative = inhibition is inactive: 4.87%.

As for `CP(=O)(Nc1ccccc1)Oc1ccc(F)cc1` (stereo unspecified), the activity change, negative = inhibition was inactive: -3.5%.

Turning to `CCN(CC)CCCOC(=O)C(O)(c1ccccc1)C1CCCCC1` (stereo unspecified), the activity change, negative = inhibition was inactive: -4.74%.

Consider `COc1ccc(OP(C)(=O)Nc2ccc(SC(F)(F)F)cc2)cc1` (stereo unspecified), for which the activity change, negative = inhibition was inactive: 2.8%.

`CCOC(=O)c1ccc(NP(C)(=O)Oc2ccc(F)cc2)cc1` (stereo unspecified): the activity change, negative = inhibition was inactive: 21.7%.

On to `CC(C)c1ccc(OP(C)(=O)Nc2ccc(SC(F)(F)F)cc2)cc1` (stereo unspecified), for which the activity change, negative = inhibition is inactive: -0.281%.

In the case of `CCc1ccc(OP(C)(=O)O)cc1`, the activity change, negative = inhibition is inactive: 0.155%.

For the molecule `COc1ccccc1OP(C)(=O)Nc1ccc(C)cc1C` (stereo unspecified), the activity change, negative = inhibition is inactive: 4.68%.

Turning to `CP(=O)(Nc1ccccn1)Oc1ccccc1` (stereo unspecified), the activity change, negative = inhibition is inactive: -6.16%.

With `Cc1c(NP(C)(=O)Oc2ccc(C(C)C)cc2)c(=O)n(-c2ccccc2)n1C` (stereo unspecified), the activity change, negative = inhibition is inactive: -2.04%.

With `O=[N+]([O-])c1cc([N+](=O)[O-])c(Nc2ccccn2)c([N+](=O)[O-])c1`, the activity change, negative = inhibition is inactive: -0.708%.

For `CN(C)CCOC(=O)C(O)(c1ccccc1)C1CCCC1` (stereo unspecified), the activity change, negative = inhibition is inactive: 1.67%.

`COc1ccccc1OP(C)(=O)Nc1ccc(Br)cc1` (stereo unspecified): the activity change, negative = inhibition is inactive: 6.05%.

As to `CP(=O)(OCCOc1ccccc1)OCCOc1ccccc1`, the activity change, negative = inhibition is inactive: -2.23%.

With `Cc1nc2ccc3ccccc3c2o1.O=[N+]([O-])c1cc([N+](=O)[O-])c(O)c([N+](=O)[O-])c1`, the activity change, negative = inhibition was inactive: -10.2%.

`COc1ccccc1OP(C)(=O)Nc1ccc(C)c(C)c1` (stereo unspecified): the activity change, negative = inhibition was inactive: -13.7%.

Consider `Cc1cc(C)cc(OP(C)(=O)Nc2cccc(C(F)(F)F)c2)c1` (stereo unspecified), for which the activity change, negative = inhibition was inactive: 2.8%.

As to `CP(=O)(OC12CC3CC(CC(C3)C1)C2)OC12CC3CC(CC(C3)C1)C2`, the activity change, negative = inhibition was inactive: -5.89%.

In the case of `CN(C)C(=O)c1c([N+](=O)[O-])cc([N+](=O)[O-])cc1[N+](=O)[O-]`, the activity change, negative = inhibition is inactive: -13.8%.

On to `CP(=O)(Nc1ccc(Cl)cc1)Oc1ccc(F)cc1` (stereo unspecified), for which the activity change, negative = inhibition is inactive: -6.53%.

Consider `COc1ccccc1OP(C)(=O)Nc1ccccc1Br` (stereo unspecified), for which the activity change, negative = inhibition was inactive: -0.67%.

With `CC(C)(C)c1ccc(OP(C)(=O)O)cc1`, the activity change, negative = inhibition is inactive: -7.51%.

As for `CCc1ccc(OP(C)(=O)Nc2cccnc2)cc1` (stereo unspecified), the activity change, negative = inhibition was inactive: 1.46%.

Consider `CP(=O)(Oc1ccccc1)N1CCOC1=O` (stereo unspecified), for which the activity change, negative = inhibition was inactive: -3.06%.

Turning to `O=C(OCCCN1CCCC1)C(O)(c1ccccc1)C1CCCCC1` (stereo unspecified), the activity change, negative = inhibition was inactive: -7.56%.

On to `COc1ccccc1OP(C)(=O)Nc1c(C)n(C)n(-c2ccccc2)c1=O` (stereo unspecified), for which the activity change, negative = inhibition is inactive: -10.6%.

On to `COc1ccc(OP(C)(=O)Nc2ccc(Br)cc2)cc1` (stereo unspecified), for which the activity change, negative = inhibition was inactive: -1.04%.

`CCN(CC)CC(O)COC(=O)C(O)(c1ccccc1)C1CCCCC1` (stereo unspecified): the activity change, negative = inhibition is inactive: -1.46%.

The values are drawn from PubChem BioAssay AID485294 (National Center for Advancing Translational Sciences (NCATS), 2010).
